Assay results as given in PubChem BioAssay AID493033 (ICCB-Longwood Screening Facility, Harvard Medical School, 2011).
Only a part is listed here, and it is no random draw. Activity calls are given as the source filed them. Rule as the data show it: active = inhibition mostly above about 56% (no sharp cut-off); inactive = mostly below about 77%.

Sequences of proteins named here, by UniProt entry; tags and fusion partners are left off.
UniProt P9WFX0, whole entry: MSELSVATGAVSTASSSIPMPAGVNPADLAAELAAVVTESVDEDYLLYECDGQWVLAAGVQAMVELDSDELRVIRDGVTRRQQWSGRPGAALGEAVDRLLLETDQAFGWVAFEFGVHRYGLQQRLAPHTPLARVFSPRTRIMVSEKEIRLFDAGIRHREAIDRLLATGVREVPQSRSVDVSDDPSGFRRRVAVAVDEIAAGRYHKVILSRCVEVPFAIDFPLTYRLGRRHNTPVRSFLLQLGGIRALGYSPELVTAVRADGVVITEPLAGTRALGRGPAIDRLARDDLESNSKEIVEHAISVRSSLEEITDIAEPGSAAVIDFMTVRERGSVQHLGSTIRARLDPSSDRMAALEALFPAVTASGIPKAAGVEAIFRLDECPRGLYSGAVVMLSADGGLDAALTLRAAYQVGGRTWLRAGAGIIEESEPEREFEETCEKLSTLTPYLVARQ

Biological target: Salicylate synthase (Mycobacterium tuberculosis (strain CDC 1551 / Oshkosh)) (UniProt P9WFX0)
Assay: MbtI salicylate synthase inhibitors, primary screen, biochemical, fluorescence intensity (AID 493033)
Conditions: purified MbtI enzyme, fluorescence intensity read-out; active compounds read high; concentration not given here

Row | Compound | inhibition
1 | NC(=O)C1(Nc2ccccc2)CCN(Cc2ccccc2)CC1 | inactive: -7.85%
2 | O=C1CCN(CCc2ccccc2)CC1 | inactive: -6.9%
3 | CN1CCC(Nc2ccc(F)cc2)CC1 | inactive: -22.9%
4 | O=C(NCC1(N2CCOCC2)CCCCC1)c1cc2ccccc2cc1O | inactive: -29.4%
5 | CCCN1CCC(Nc2cc(OC)cc(OC)c2)CC1 | inactive: 2.95%
6 | Cc1c(C(=O)NCC2(N3CCOCC3)CCCCC2)oc2c(Cl)cccc12 | inactive: -5.1%
7 | CC1CN(Cc2ccccc2)CCC1=O (configuration not stated) | inactive: -2.35%
8 | CCN1CCC(Nc2ccc(F)cc2)CC1 | inactive: -18.5%
9 | CC1CN(C)C(C)CC1Nc1ccccc1 (configuration not stated) | inactive: -13.4%
10 | CN(C)c1ccc(C(=O)NCC2(N3CCCCC3)CCCCC2)cc1 | inactive: 2.75%
11 | CCOc1ncccc1C(=O)NCC1(N(C)C)CCCCC1 | inactive: 4.5%
12 | O=C(NCC1(N2CCCCC2)CCCCC1)c1n[nH]c2ccccc12 | inactive: 165%
13 | CCOc1ncccc1C(=O)NCC1(N2CCCCC2)CCCCC1 | inactive: 16.1%
14 | CCCN1CCC(Nc2ccc(OC)c(OC)c2)CC1 | inactive: -15.2%
15 | COc1ccc(C(=O)NCC2(N3CCCCC3)CCCCC2)cc1 | inactive: -5.65%
16 | N#CC1(Nc2ccccc2)CCN(Cc2ccccc2)CC1 | inactive: 0.2%
17 | Cc1cnc(C(=O)NCC2(N3CCCCC3)CCCCC2)cn1 | inactive: -17.6%
18 | O=C1CCN(Cc2ccccc2)CC1 | inactive: 4.8%
19 | O=C(NCC1(N2CCOCC2)CCCCC1)c1ccc2nc[nH]c2c1 | inactive: -11.9%
20 | CCOC(=O)N1CCC(Nc2ccc(F)cc2)CC1 | inactive: -31.2%
21 | CCOC(=O)N1CCC(Nc2cccc(C)c2)CC1 | inactive: -19.9%
22 | Cn1nc(C(=O)NCC2(N3CCCCC3)CCCCC2)c2ccccc2c1=O | inactive: -3.6%
23 | CC(C)(C)OC(=O)N1CCC(Nc2ccc(OC(F)(F)F)cc2)CC1 | inactive: 5.6%
24 | FC(F)(F)Oc1ccc(NC2CCNCC2)cc1 | inactive: 1.75%
25 | NC(=O)C1(Nc2ccc(F)cc2)CCNCC1 | inactive: -0.85%
26 | c1ccc(CN2CCC(Nc3ccc4c(c3)OCO4)CC2)cc1 | inactive: -132%
27 | Cc1ccc(C(=O)NCC2(N(C)C)CCCCC2)o1 | inactive: 0.9%
